Laboratory results published in patent US6911203.

Molecular target: T1, human MAPKK3 (UniProt P46734)
T1 sequence: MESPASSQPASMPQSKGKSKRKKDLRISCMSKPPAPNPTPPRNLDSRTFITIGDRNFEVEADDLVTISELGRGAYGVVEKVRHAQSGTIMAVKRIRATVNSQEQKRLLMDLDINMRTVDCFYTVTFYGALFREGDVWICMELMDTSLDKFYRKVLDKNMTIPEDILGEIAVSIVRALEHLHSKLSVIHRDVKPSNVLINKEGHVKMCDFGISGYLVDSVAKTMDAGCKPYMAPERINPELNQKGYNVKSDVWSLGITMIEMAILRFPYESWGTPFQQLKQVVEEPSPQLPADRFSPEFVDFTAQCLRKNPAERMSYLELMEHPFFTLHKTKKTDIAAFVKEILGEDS

anthrax lethal factor (LF)
cleavage by LF: LF also cleaves MAPKK3
